Values of other authors as cited in patent US11517581B2, “Zika virus protease inhibitors and methods of use thereof” (priority 2017, dated 2022).

Test system: ZIKV
Details: cited from earlier work

Structure (SMILES) | Cmax:IC50 ratio (500 mg intravenous dose) | Cmax:IC50 ratio (oral, literature drugs)
CC[C@H]1OC(=O)[C@H](C)[C@@H](O[C@H]2C[C@@](C)(OC)[C@@H](O)[C@H](C)O2)[C@H](C)[C@@H](O[C@@H]2O[C@H](C)C[C@H](N(C)C)[C@H]2O)[C@](C)(O)C[C@@H](C)CN(C)[C@H](C)[C@@H](O)[C@]1(C)O [azithromycin] | ≤ 2.31 | 0.26
CCN(CC)CCCC(C)Nc1ccnc2cc(Cl)ccc12 (stereo not shown) [chloroquine] |  | 0.12
OC(c1cc(C(F)(F)F)nc2c(C(F)(F)F)cccc12)C1CCCCN1 (stereo not shown) [mefloquine] |  | 0.58

Where two headings read alike, the source gives them in different places.
